Data as given in PubChem BioAssay AID624099 (ICCB-Longwood, 2012).

Assay: 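Human genes that papillomavirus E2 requires to repress the HPV18 LCR promoter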 (primary screen)
System: human C33A cervical carcinoma cells (HPV-negative) stably expressing BPV1 E2 and an HPV18 LCR luciferase reporter
Knock-down reagent: siRNA pool against human genes, 40 nM
Duration: 72 h
Measured: 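HPV18 LCR reporter light per well, converted to plate-wise z-scores that exclude control wells, and averaged over triplicate plates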
Reading the numbers: mean z-score and z-score: higher = stronger reporter signal, weaker E2 silencing
Call rule: 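Hit if mean z-score reaches 2 and two or more of three replicate z-scores also reach 2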
Here is a random part of about 21,000 reagents. 497 of all reagents (2.4%) count as active. 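Higher z means weaker E2 silencing; only reporter increases were scored, and knock-downs that hurt cell survival may mask genuine repressor factors.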 A number with no mark means an inactive call. Reagents against one gene are numbered here.

What did the screen give for EPGN (epithelial mitogen)?
mean z-score: -0.19; z-score, replicate A: -0.15; z-score, replicate B: -0.01; z-score, replicate C: -0.41

For LINC00482 (long independently transcribed non-coding RNA 482), what does the deposit list?
mean z-score: -0.89; z-score, replicate A: -0.94; z-score, replicate B: -1.12; z-score, replicate C: -0.62

Which result is listed for PCDHB9 (protocadherin beta 9)?
mean z-score: 0.24; z-score, replicate A: 0.16; z-score, replicate B: 0.18; z-score, replicate C: 0.38

For TFR2 (transferrin receptor 2), what was measured?
mean z-score: 0.12; z-score, replicate A: -0.02; z-score, replicate B: -0.17; z-score, replicate C: 0.56

What is on record for RAD17 (RAD17 checkpoint clamp loader component)?
mean z-score: -0.97; z-score, replicate A: -1.17; z-score, replicate B: -1.1; z-score, replicate C: -0.64

With LOC132969 (retired record), what was measured?
mean z-score: 0.5; z-score, replicate A: 0.48; z-score, replicate B: 0.41; z-score, replicate C: 0.62

With MAP6D1 (MAP6 domain containing 1), what does the deposit list?
mean z-score: -0.15; z-score, replicate A: -0.59; z-score, replicate B: -0.25; z-score, replicate C: 0.39

How did the screen score RPL10L (ribosomal protein L10 like)?
mean z-score: 0.9; z-score, replicate A: 0.63; z-score, replicate B: 0.46; z-score, replicate C: 1.6

With FLYWCH1 (FLYWCH-type zinc finger 1), what does the deposit list?
mean z-score: 1.46; z-score, replicate A: 1.16; z-score, replicate B: 1.8; z-score, replicate C: 1.41

What is on record for ZNF815P (zinc finger protein 815, pseudogene) #1?
mean z-score: 0.4; z-score, replicate A: 0.25; z-score, replicate B: 0.67; z-score, replicate C: 0.27

With ZNF815P (zinc finger protein 815, pseudogene) #2, what does the deposit list?
mean z-score: -0.05; z-score, replicate A: 0.1; z-score, replicate B: -0.05; z-score, replicate C: -0.22

What did the screen give for ZNF815P (zinc finger protein 815, pseudogene) #3?
mean z-score: -0.18; z-score, replicate A: -0.3; z-score, replicate B: -0.18; z-score, replicate C: -0.08

For CDKN2AIP (CDKN2A interacting protein), what does the deposit list?
mean z-score: 0.84; z-score, replicate A: 0.95; z-score, replicate B: 0.99; z-score, replicate C: 0.58

For SMG6 (SMG6 nonsense mediated mRNA decay factor), how do the results read?
mean z-score: -1.58; z-score, replicate A: -2.04; z-score, replicate B: -1.33; z-score, replicate C: -1.38

How did the screen score ANGPTL6 (angiopoietin like 6)?
mean z-score: -0.71; z-score, replicate A: -0.84; z-score, replicate B: -0.89; z-score, replicate C: -0.41

With DHCR7 (7-dehydrocholesterol reductase), what does the deposit list?
mean z-score: 1.27; z-score, replicate A: 1.04; z-score, replicate B: 1.23; z-score, replicate C: 1.55

What did the screen give for KLF3 (KLF transcription factor 3)?
mean z-score: -0.26; z-score, replicate A: -0.13; z-score, replicate B: -0.11; z-score, replicate C: -0.54

What did the screen give for LOC400985 (retired record)?
mean z-score: 0.26; z-score, replicate A: 0.44; z-score, replicate B: 0.08; z-score, replicate C: 0.26

Which result is listed for PSMA7 (proteasome 20S subunit alpha 7)?
mean z-score: -0.71; z-score, replicate A: -0.91; z-score, replicate B: -0.61; z-score, replicate C: -0.6

With SLC7A14, what was measured?
mean z-score: -1.35; z-score, replicate A: -1.84; z-score, replicate B: -1.23; z-score, replicate C: -0.99

With WDPCP (WD repeat containing planar cell polarity effector), what was measured?
mean z-score: 1.28; z-score, replicate A: 0.29; z-score, replicate B: 1.81; z-score, replicate C: 1.73

For TCAF2 (TRPM8 channel associated factor 2), what does the deposit list?
mean z-score: 2.36 (active); z-score, replicate A: 1.84; z-score, replicate B: 2.62; z-score, replicate C: 2.62

With GPR174 (G protein-coupled receptor 174), what was measured?
mean z-score: -0.83; z-score, replicate A: -0.93; z-score, replicate B: -0.9; z-score, replicate C: -0.65

What is on record for IL25 (interleukin 25)?
mean z-score: -0.91; z-score, replicate A: -0.28; z-score, replicate B: -1.11; z-score, replicate C: -1.35

How did the screen score RRAGA (Ras related GTP binding A)?
mean z-score: 0.63; z-score, replicate A: 0.48; z-score, replicate B: 0.5; z-score, replicate C: 0.91

With TGIF2LX (TGFB induced factor homeobox 2 like X-linked), what was measured?
mean z-score: 0.67; z-score, replicate A: 0.43; z-score, replicate B: 0.87; z-score, replicate C: 0.71

Which result is listed for PHLDB2 (pleckstrin homology like domain family B member 2)?
mean z-score: 0.41; z-score, replicate A: 0.23; z-score, replicate B: 0.42; z-score, replicate C: 0.57

Active calls, of those listed so far:
TCAF2 (TRPM8 channel associated factor 2) — mean z-score: 2.36 (active); z-score, replicate A: 1.84; z-score, replicate B: 2.62; z-score, replicate C: 2.62
